Test results published in PubChem BioAssay AID449762 (Southern Research Specialized Biocontainment Screening …, 2010).
Inconclusive results are not listed.

Tested on: M. tuberculosis H37Rv growth inhibition, 7H9 media
Experiment: M. tuberculosis growth inhibition, HTS (AID 449762);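 also: bacterial growth assessed after seven days of incubation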
Details: measured here: IC90 growth inhibition

Compound O=C(OC1CN2CCC1CC2)C1c2ccccc2Oc2ccccc21 (stereo unspecified) has an IC90 of 44.3 µM.
